Test results published in patent US20240392231A1, “BACTERIOLYSIS METHOD AND BACTERIA DETECTION METHOD” (ASAHI KASEI KABUSHIKI KAISHA, priority 2021, published 2024).

Experiment: Test line intensity of bacteria-free solution (false positives)
Conditions: lysostaphin final concentration exceeding 5.0 μg/ml

## lysostaphin: bacteriolysis enzyme, protein hydrolysis enzyme
DDAO 0.075 mass %, FIG. 4
  test line intensity, no bacteria (false positives): ≥ 10
Benzalkonium chloride 0.025 mass %, FIG. 5
  test line intensity, no bacteria (false positives): ≥ 10
